How the values were obtained:
[1] = test system: Cells containing hepatitis C virus (HCV) replicon; assay: HCV replicon cell assay (Taqman RT-PCR of HCV RNA); format: cell-based; conditions: 50% inhibition of HCV RNA level, 48-hour incubation
Method: HCV Replicon Cell Assay Protocol
Cells containing hepatitis C virus (HCV) replicon were maintained in DMEM containing 10% fetal bovine serum (FBS), 0.25 mg per ml of G418, with appropriate supplements (media A).
On day 1, replicon cell monolayer was treated with a trypsin:EDTA mixture, removed, and then media A was diluted into a final concentration of 100,000 cells per ml wit. 10,000 cells in 100 ul were plated into each well of a 96-well tissue culture plate, and cultured overnight in a tissue culture incubator at 37° C.
On day 2, compounds (in 100% DMSO) were serially diluted into DMEM containing 2% FBS, 0.5% DMSO, with appropriate supplements (media B). The final concentration of DMSO was maintained at 0.5% throughout the dilution series.
Media on the replicon cell monolayer was removed, and then media B containing various concentrations of compounds was added. […]
A Taqman real-time RT-PCR quantification assay was set up with two sets of specific primers and probe. […] Total RNA extractants from treated HCV replicon cells was added to the PCR reactions for quantification of both HCV and BVDV RNA in the same PCR well. […] The level of HCV RNA in each well was calculated according to a standard curve run in the same PCR plate. The percentage of inhibition or decrease of HCV RNA level due to compound treatment was calculated using the DMSO or no compound control as 0% of inhibition. […]

Sequences of proteins named here, by UniProt entry; tags and fusion partners are left off. Residues count along the entry.
UniProt P27958, 1027-1208 limits assumed: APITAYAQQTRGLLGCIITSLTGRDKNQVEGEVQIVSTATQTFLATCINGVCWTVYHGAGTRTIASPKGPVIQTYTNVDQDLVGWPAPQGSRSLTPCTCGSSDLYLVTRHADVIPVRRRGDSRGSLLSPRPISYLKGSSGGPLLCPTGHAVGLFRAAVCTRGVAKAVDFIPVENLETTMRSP

[2] = molecular target: HCV NS3-NS4A protease (tNS3 with KK4A) (Hepatitis C virus genotype 1a, UniProt P27958); assay: HCV Ki assay (HPLC microbore separation of 5AB substrate and products); format: biochemical; conditions: 25 nM tNS3, 25 μM KK4A, 25 μM 5AB substrate, 20 min at 30 C
Method: HPLC Microbore Method for Separation of 5AB Substrate and Products
• Substrate: • NH2-Glu-Asp-Val-Val-(alpha)Abu-Cys-Ser-Met-Ser-Tyr-COOH
A stock solution of 20 mM 5AB (or concentration of your choice) was made in DMSO w/ 0.2M DTT. This was stored in aliquots at −20 C.
Buffer: 50 mM HEPES, pH 7.8; 20% glycerol; 100 mM NaCl
Total assay volume was 100 μL
The buffer, KK4A, DTT, and tNS3 were combined; distributed 78 μL each into wells of 96 well plate. This was incubated at 30 C for ˜5–10 min.
2.5 μL of appropriate concentration of test compound was dissolved in DMSO (DMSO only for control) and added to each well. This was incubated at room temperature for 15 min.
Initiated reaction by addition of 20 μL of 250 μM 5AB substrate (25 μM concentration is equivalent or slightly lower than the Km for 5AB).
Incubated for 20 min at 30 C.
Terminated reaction by addition of 25 μL of 10% TFA
Transferred 120 μL aliquots to HPLC vials
Separated SMSY product from substrate and KK4A by the following method:
Microbore Separation Method:
Instrumentation: Agilent 1100
• Degasser G1322A • Binary pump G1312A • Autosampler G1313A • Column thermostated chamber G1316A • Diode array detector G1315A Column:
Phenomenex Jupiter; 5 micron C18; 300 angstroms; 150×2 mm; P/O 00F-4053-B0 • Column thermostat: 40 C • Injection volume: 100 μL • Solvent A=HPLC grade water+0.1% TFA • Solvent B=HPLC grade acetonitrile+0.1% TFA […]

Question: `CCC[C@H](NC(=O)[C@@H]1C[C@@H](Oc2ncnc3ccccc23)CN1C(=O)[C@@H](NC(=O)[C@@H](NC(=O)c1[nH]c(C)c(C)c1C(C)=O)C1CCCCC1)C(C)(C)C)C(=O)C(=O)NC1CC1` was tested. Which IC50 [1] did it give?
Answer: < 500 nM

Question: And the Ki [2]?
Answer: < 500 nM
